We go through one substance from PMC4604167.

This test concerns the target protein-L (bacterial surface protein) (UniProt Q51918). Nature of the test: SPR. For orientation: SPR reads the build-up and loss of mass on a sensor chip optically.

Turning to “barley-derived recombinant anti-HIV-1 monoclonal antibody 2G12 with KDEL tag”, the other is 101%.
